Pooled drug test results. Numbers come from NIAID ChemDB, via PubChem.

Shared fields: enzyme or target tests

Conditions beyond the fields shown may differ between rows.

CC(=O)C(C(=O)OCc1ccccc1)C1=C(Cl)C(=O)c2ccccc2C1=O ; measure: IC50 ; organism: Human cytomegalovirus ; read by: scintillation proximity ; protein: Protease ; value: 0.8 µM
Nc1nc2c(ncn2CC[C@@H](O)COP(=O)(O)OP(=O)(O)OP(=O)(O)O)c(=O)[nH]1 ; measure: Ki ; organism: Human cytomegalovirus ; protein: DNA polymerase ; strain or isolate: AD169 ; value: 3.5 µM
CCSCCNc1nnc(NC(=O)c2ccc(Br)cc2)s1 ; measure: IC50 ; organism: Human cytomegalovirus ; protein: Polymerase ; value: >25 µM
N/C(=N\OC(=O)Cc1ccccc1)c1ccc(Cl)cc1Cl ; measure: IC50 ; organism: Human cytomegalovirus ; read by: scintillation proximity / radiometric ; protein: Polymerase ; value: 44 µM
Cc1cccc2nc(N[C@@H](Cc3c[nH]c4ccccc34)C(=O)OC(C)(C)C)oc(=O)c12 ; measure: IC50 ; organism: Human cytomegalovirus ; protein: Protease ; value: 0.64 µM
O=C1C[C@H](Cc2nccs2)N1C(=O)NCc1ccc([N+](=O)[O-])cc1 ; measure: IC50 ; organism: Human cytomegalovirus ; protein: Protease ; value: 2.5 µM
CCCC[C@H](Nc1nc2cccc(C)c2c(=O)o1)C(=O)OC ; measure: IC50 ; organism: Human cytomegalovirus ; protein: Protease ; value: 0.41 µM
O=C1C[C@H](Cc2ccco2)N1C(=O)NCc1ccc([N+](=O)[O-])cc1 ; measure: IC50 ; organism: Human cytomegalovirus ; protein: Protease ; value: 3.1 µM
Cc1nc(NCC2CCCCC2)nc(-n2ccnc2C)c1[N+](=O)[O-] ; measure: IC50 ; organism: Human cytomegalovirus ; protein: UL70 primase ; value: 0.15 µM
Cc1cccc(C)c1C(=O)O/N=C(\N)c1ccc(Cl)cc1Cl ; measure: IC50 ; organism: Human cytomegalovirus ; read by: scintillation proximity / radiometric ; protein: Polymerase ; value: 32 µM
O=C(NCc1ccc(Cl)cc1)c1cn2c3c(cc(CN4CCOCC4)cc3c1=S)OCC2 ; measure: IC50 ; organism: Human cytomegalovirus ; read by: scintillation proximity / radiometric ; protein: DNA polymerase ; value: 0.06 µM
O=C(NCc1ccc(Cl)cc1)c1c[nH]c2ccc(CCCO)cc2c1=O ; measure: Ki ; organism: Human cytomegalovirus ; protein: Herpesvirus DNA polymerase ; value: 0.35 µM
N/C(=N\OC(=O)c1cnc2ccccc2n1)c1ccc(Cl)cc1Cl ; measure: IC50 ; organism: Human cytomegalovirus ; read by: scintillation proximity / radiometric ; protein: Polymerase ; value: >100 µM
O=C(NCCc1ccccc1)c1cc2ccccc2cc1O ; measure: IC50 ; organism: Human cytomegalovirus ; protein: HCMV DNA polymerase ; value: >100 µM
Nc1nc(Cl)cc(Nc2cc(Cl)cc(Cl)c2)n1 ; measure: IC50 ; organism: Human cytomegalovirus ; protein: DNA polymerase ; strain or isolate: AD169 ; value: 150 µM
Nc1nc2c(ncn2CC[C@H](O)COP(=O)(O)OP(=O)(O)OP(=O)(O)O)c(=O)[nH]1 ; measure: Ki ; organism: Human cytomegalovirus ; protein: DNA polymerase ; strain or isolate: AD169 ; value: 13.4 µM
CC(=NCCN=C(C)c1ccccc1O)c1ccccc1O ; measure: IC50 ; organism: Human cytomegalovirus ; protein: Proteinase ; value: >367 µM
Cn1nnc(C[C@H]2CC(=O)N2C(=O)NCc2ccc(C(F)(F)F)cc2)n1 ; measure: IC50 ; organism: Human cytomegalovirus ; protein: Protease ; value: 5.7 µM
Nc1nc2c(ncn2COC(CO)COP(=O)(O)OP(=O)(O)OP(=O)(O)O)c(=O)[nH]1 ; measure: IC50 ; organism: Human herpesvirus 6 ; protein: DNA polymerase ; strain or isolate: Z29 (TYPE 6B) ; value: 5.56 µM
O=C(Nc1ccc([N+](=O)[O-])cc1)c1cc(O)c2ccccc2c1O ; measure: IC50 ; organism: Human cytomegalovirus ; protein: HCMV DNA polymerase ; value: 7.35 µM
N/C(=N\OC(=O)c1cc(Cl)ccc1Cl)c1ccc(Cl)cc1Cl ; measure: IC50 ; organism: Human cytomegalovirus ; read by: scintillation proximity / radiometric ; protein: Polymerase ; value: 6.7 µM
O=C(NCc1ccc([N+](=O)[O-])cc1)c1cc2cc(O)ccc2cc1O ; measure: IC50 ; organism: Human cytomegalovirus ; protein: HCMV DNA polymerase ; value: >40 µM
Cn1cc(C(=O)NCc2ccc(Cl)cc2)c(=O)c2cc(CN3CCOCC3)ccc21 ; measure: IC50 ; organism: Human cytomegalovirus ; protein: Polymerase ; value: 0.69 µM
COC(=O)[C@H](CCSC)Nc1nc2cccc(C)c2c(=O)o1 ; measure: IC50 ; organism: Human cytomegalovirus ; protein: Protease ; value: 0.46 µM
O=C1C[C@H](Cc2nc3ccccc3s2)N1C(=O)NCc1ccc(C(F)(F)F)cc1 ; measure: IC50 ; organism: Human cytomegalovirus ; protein: Protease ; value: 2.7 µM
O=C(NCc1ccc(Cl)cc1)c1cn2c3c(cc(CN4CCOCC4)cc3c1=O)OC(c1cccnc1)C2 ; measure: IC50 ; organism: Human cytomegalovirus ; read by: scintillation proximity / radiometric ; protein: HCMV polymerase ; value: 0.32 µM
O=C(O)CP(=O)(O)O ; measure: inhibition ; organism: Human herpesvirus 6 ; dose: 2 µg/mL ; protein: DNA polymerase ; strain or isolate: TYPE 6 ; value: 31.7%
Cc1ccccc1C(=O)O/N=C(\N)c1ccc(Cl)cc1Cl ; measure: IC50 ; organism: Human cytomegalovirus ; read by: scintillation proximity / radiometric ; protein: Polymerase ; value: 6.1 µM
O=C(/C=C/c1ccccc1Cl)Nc1nnc(NCc2cccs2)s1 ; measure: IC50 ; organism: Human cytomegalovirus ; protein: Polymerase ; value: <25 µM
COc1cc(OC)cc(C(=O)O/N=C(\N)c2ccc(Cl)cc2Cl)c1 ; measure: IC50 ; organism: Human cytomegalovirus ; read by: scintillation proximity / radiometric ; protein: Polymerase ; value: 5.3 µM
Cc1nc2[nH]cc(C(=O)NCc3ccc(Cl)cc3)c(=O)c2cc1Br ; measure: inhibition ; organism: Human cytomegalovirus ; dose: 20 µM ; protein: Polymerase ; value: 39%
N#Cc1ccc(C(=O)Nc2nnc(NCC3CCCCC3)s2)cc1 ; measure: IC50 ; organism: Human cytomegalovirus ; protein: Polymerase ; value: >25 µM
Cn1cc(C(=O)NCc2ccc(Cl)cc2)c(=O)c2cc(/C=C\CO)cc(F)c21 ; measure: IC50 ; organism: Human cytomegalovirus ; protein: DNA polymerase ; strain or isolate: AD169 ; value: 0.78 µM
COC(=O)[C@H](C)Nc1nc2ccc(NC(=O)OC(C)(C)C)c(C)c2c(=O)o1 ; measure: IC50 ; organism: Human cytomegalovirus ; protein: Protease ; value: 0.74 µM
O=C1C[C@H](Cc2nccs2)N1C(=O)NCc1ccc(C(F)(F)F)cc1 ; measure: IC50 ; organism: Human cytomegalovirus ; protein: Protease ; value: 4.9 µM
O=C(NCc1ccc(Cl)cc1)c1cn2c3c(cc(CN4CCOCC4)cc3c1=O)OC(c1cccnc1)C2 ; measure: IC50 ; organism: Human cytomegalovirus ; read by: scintillation proximity / radiometric ; protein: DNA polymerase ; strain or isolate: AD169 ; value: 0.3 µM
N/C(=N\OC(=O)c1ccncc1)c1ccc(Cl)cc1Cl ; measure: IC50 ; organism: Human cytomegalovirus ; read by: scintillation proximity / radiometric ; protein: Polymerase ; value: 52 µM
O=C1C(Cl)=C(CCCC2CCCCC2)C(=O)c2ccccc21 ; measure: IC50 ; organism: Human cytomegalovirus ; read by: scintillation proximity ; protein: Protease ; value: 67 µM
Nc1ccn(C[C@@H](CO)OCP(=O)(O)OP(=O)(O)OP(=O)(O)O)c(=O)n1 ; measure: IC50 ; organism: Human cytomegalovirus ; protein: DNA polymerase ; value: <100 µM
N/C(=N/OC(=O)c1cccc2ccccc12)c1cccc(Cl)c1Cl ; measure: IC50 ; organism: Human cytomegalovirus ; read by: scintillation proximity / radiometric ; protein: Polymerase ; value: 38.7 µM

6 of the rows above, restated:

SMILES,measure,organism,dose,read by,protein,strain or isolate,value
O=C1C[C@H](Cc2nccs2)N1C(=O)NCc1ccc([N+](=O)[O-])cc1,IC50,Human cytomegalovirus,-,-,Protease,-,2.5 µM
Nc1nc(Cl)cc(Nc2cc(Cl)cc(Cl)c2)n1,IC50,Human cytomegalovirus,-,-,DNA polymerase,AD169,150 µM
N/C(=N/OC(=O)c1cccc2ccccc12)c1cccc(Cl)c1Cl,IC50,Human cytomegalovirus,-,scintillation proximity / radiometric,Polymerase,-,38.7 µM
N/C(=N\OC(=O)c1cnc2ccccc2n1)c1ccc(Cl)cc1Cl,IC50,Human cytomegalovirus,-,scintillation proximity / radiometric,Polymerase,-,>100 µM
O=C(/C=C/c1ccccc1Cl)Nc1nnc(NCc2cccs2)s1,IC50,Human cytomegalovirus,-,-,Polymerase,-,<25 µM
O=C(Nc1ccc([N+](=O)[O-])cc1)c1cc(O)c2ccccc2c1O,IC50,Human cytomegalovirus,-,-,HCMV DNA polymerase,-,7.35 µM

Blank or dashed fields: not listed here. Percent inhibition refers to the dose given; in toxicity tests it is the harm to the cells. ICn: concentration for n% inhibition.